Pooled drug test results. Numbers come from NIAID ChemDB, via PubChem.

Common to all: whole-cell or culture tests; organism: HIV-1; endpoint: EC50

Blank or dashed fields: not listed here. Lines come from different laboratories, so protocols vary. ECn is the concentration giving n% inhibition of infection, replication or growth.

| smiles | cells | strain or isolate | mutations | read by | result |
|---|---|---|---|---|---|
| Cc1cn([C@H]2C[C@H](N=[N+]=[N-])[C@@H](CO)O2)c(=O)nc1N(C)N | C8166 | IIIB | - | MTT / ELISA | 0.16 µM |
| Cc1ccnc2c1NC(=O)c1cccnc1N2C1CC1 | MAC | BaL | - | cytopathic effect / XTT | 0.4 µM |
| CCCc1cc(=O)oc2c3c(c4c(c12)OC(C)(C)C=C4)O[C@@H](C)[C@H](C)[C@@H]3O | CEM + CEM-SS | NL4-3 | RT-A98G | XTT | 0.3 µM |
| Nc1ccn([C@H]2CC[C@@H](CO)O2)c(=O)n1 | CD4+HELA + HeLa | HXB2 | RT-V75T 184V | plaque count | 2 µM |
| CCCc1cc(=O)oc2c3c(c4c(c12)OC(C)(C)C=C4)O[C@H](C)[C@@H](C)[C@@H]3O | CEM + CEM-SS | IIIB | RT-Y181C | cytopathic effect / XTT | 0.1 µM |
| CC(C)CN(C[C@@H](O)[C@H](Cc1ccccc1)NC(=O)[C@H](CC(N)=O)NC(=O)c1ccc2ccccc2n1)C(=O)NC(C)(C)C | MT-2 | RF | PR-G48V A71T V82A | - | 1.11 µM |
| Cc1ccnc2c1NC(=O)c1cccnc1N2C1CC1 | MAGI | NNRTI-resistant (RT V106I) | RT-V106I | β-galactosidase | 0.15 µM |
| CCc1c(Sc2ccccn2)n(COCc2ccccc2)c(=O)[nH]c1=O | CEM + CEM-SS | NL4-3 | RT-L74V | cytopathic effect / XTT | 0.018 µM |
| Cc1cn([C@H]2C[C@H](N=[N+]=[N-])[C@@H](CO)O2)c(=O)[nH]c1=O | HT4LACZ-1 + HT4 LacZ-1 | Q184/RR (recombinant) | - | plaque count | 2.13 µM |
| Cc1ccc(-c2c[nH]c(=S)n2NC(=S)Nc2ccc(Cl)cc2)cc1 | C8166 | IIIB | - | syncytia / visual reading | 3.43 µM |
| Nc1ncnc2c1ncn2[C@H]1CC[C@@H](CO)O1 | U-937 | LAV-1 | - | virus yield | <1 µM |
| Cc1cn([C@H]2C[C@H](N=[N+]=[N-])[C@@H](CO)O2)c(=O)[nH]c1=O | CEM + CEM-SS | Thiazolobenzimidazole-resistant (RT V108I) | RT-V108I | XTT | 0.04 µM |
| CCOC(=O)CC1OP(=O)(OC[C@@H]2C=C[C@H](n3cc(C)c(=O)[nH]c3=O)O2)Oc2ccccc21 | CEM + CEM/O | IIIB | - | cytopathic effect / syncytia | 0.16 µM |
| Cn1c2ccccc2c2c1cc(C#N)c(=O)n2-c1ccc([N+](=O)[O-])cc1 | HeLa | NL4-3 WT | - | luciferase | 0.0271 µM |
| Cc1ccnc2c1NC(=O)c1cccnc1N2C1CC1 | CEM + CEM-SS | Dihydrocostatolide-resistant (RT-L100I) | RT-L100I | XTT | 0.1 µM |
| Cc1cn([C@H]2C=C[C@@H](CO)O2)c(=O)[nH]c1=O | CEM + CEM/O | IIIB | - | cytopathic effect / syncytia | 0.33 µM |
| CC(C)(C)OC(=O)N[C@@H](Cc1ccccc1)[C@@H](O)C[C@@H](Cc1ccccc1)C(=O)N[C@H]1c2ccccc2C[C@H]1O | H9 | IIIB | - | antigen | <0.4 µM |
| CC(=O)OCOP(=O)(OCOC(C)=O)C(=O)Oc1ccccc1 | H9 | - | - | thymidine uptake | >30 µM |
| Cc1cn([C@H]2C[C@H](N=[N+]=[N-])[C@@H](CO)O2)c(=O)[nH]c1=O | HeLa | Recombinant | RT-M41L A62V S68N G112S M184V | luciferase | 0.00608 µM |
| CC(C)(C)OC(=O)N[C@@H](Cc1ccccc1)[C@@H](O)C[C@@H](Cc1ccc(OCCN2CCS(=O)CC2)cc1)C(=O)N[C@H]1c2ccccc2C[C@H]1O | H9 | IIIB | - | antigen | <0.2 µM |
| NS(=O)(=O)c1ccc(SSc2ccc(S(N)(=O)=O)cc2[N+](=O)[O-])c([N+](=O)[O-])c1 | Macrophage + Monocytes/macrophages | ADA | - | XTT / p24 | 42 µM |
| Cc1cn([C@H]2C[C@H](N=[N+]=[N-])[C@@H](CO)O2)c(=O)nc1NN(C)C | C8166 | IIIB | - | MTT / ELISA | 0.064 µM |
| Cc1ccc(NC(=S)Nn2c(-c3ccc(Br)cc3)c[nH]c2=S)c(C)c1 | C8166 | IIIB | - | syncytia / visual reading | 12.43 µM |
| Fc1cccc(F)c1C1SCc2nc3ccccc3n21 | CEM + CEM-SS | Costatolide-resistant (RT L100I T139I) | RT-L100I T139I | XTT | >69 µM |
| COCCN(CCOC)CCOc1ccc(C[C@H](C[C@H](O)[C@H](Cc2ccccc2)NC(=O)OC(C)(C)C)C(=O)N[C@H]2c3ccccc3C[C@H]2O)cc1 | H9 | IIIB | - | antigen | <0.05 µM |
| CCCc1cc(=O)oc2c3c(c4c(c12)OC(C)(C)C=C4)O[C@H](C)[C@@H](C)[C@@H]3O | CEM + CEM-SS | NL4-3(RT-4XAZT+Y181C) | RT-D67N K70R Y181C T215Y K219Q | XTT | 0.01 µM |
| CC(C)(C)OC(=O)N[C@@H](Cc1ccccc1)[C@@H](O)C[C@@H](Cc1ccc(OCCN2CCOCC2)cc1)C(=O)N[C@H]1c2ccccc2C[C@H]1O | MT-4 | WMJ-2 | - | antigen | <0.006 µM |
| Cc1cn([C@H]2C=C[C@@H](COP(=O)(OCc3ccccc3)OCc3ccccc3)O2)c(=O)[nH]c1=O | CEM + CEM/O | IIIB | - | cytopathic effect / syncytia | 1.57 µM |
| O=C(Nc1ccccc1)C1=COCCS1 | CEM + CEM-SS | IIIB HEPT-resistant (RT P236L) | RT-P236L | cytopathic effect / XTT | 1.4 µM |
| Cc1cn([C@H]2C[C@H](N=[N+]=[N-])[C@@H](CO)O2)c(=O)nc1NO | C8166 | IIIB | - | MTT / ELISA | 4 µM |
| Cc1ccnc2c1NC(=O)c1cccnc1N2C1CC1 | MT-4 | IIIB | - | cytopathic effect / MTS | 0.099 µM |
| Cc1cn([C@H]2C=C[C@@H](COP3(=O)Oc4ccccc4C(C)O3)O2)c(=O)[nH]c1=O | CEM + CEM/O | IIIB | - | cytopathic effect / syncytia | 0.22 µM |
| COc1ccc(-c2c[nH]c(=S)n2NC(=S)Nc2ccc(Cl)cc2)cc1 | C8166 | IIIB | - | syncytia / visual reading | 1.96 µM |
| Cc1cn([C@H]2C[C@H](N=[N+]=[N-])[C@@H](CO)O2)c(=O)[nH]c1=O | CEM + CEM-SS | NL4-3 | RT-V108I | cytopathic effect / XTT | 0.008 µM |

For reference, 4 entries again:

smiles | cells | strain or isolate | mutations | read by | result
Cc1cn([C@H]2C[C@H](N=[N+]=[N-])[C@@H](CO)O2)c(=O)[nH]c1=O | HT4LACZ-1 + HT4 LacZ-1 | Q184/RR (recombinant) | - | plaque count | 2.13 µM
Cc1cn([C@H]2C=C[C@@H](COP(=O)(OCc3ccccc3)OCc3ccccc3)O2)c(=O)[nH]c1=O | CEM + CEM/O | IIIB | - | cytopathic effect / syncytia | 1.57 µM
NS(=O)(=O)c1ccc(SSc2ccc(S(N)(=O)=O)cc2[N+](=O)[O-])c([N+](=O)[O-])c1 | Macrophage + Monocytes/macrophages | ADA | - | XTT / p24 | 42 µM
CCOC(=O)CC1OP(=O)(OC[C@@H]2C=C[C@H](n3cc(C)c(=O)[nH]c3=O)O2)Oc2ccccc21 | CEM + CEM/O | IIIB | - | cytopathic effect / syncytia | 0.16 µM